# Measured values taken from PubChem BioAssay AID504406 (Broad Institute, 2011).
# Sequences of proteins named here, by UniProt entry; tags and fusion partners are left off.
# UniProt P9WIQ1, whole entry: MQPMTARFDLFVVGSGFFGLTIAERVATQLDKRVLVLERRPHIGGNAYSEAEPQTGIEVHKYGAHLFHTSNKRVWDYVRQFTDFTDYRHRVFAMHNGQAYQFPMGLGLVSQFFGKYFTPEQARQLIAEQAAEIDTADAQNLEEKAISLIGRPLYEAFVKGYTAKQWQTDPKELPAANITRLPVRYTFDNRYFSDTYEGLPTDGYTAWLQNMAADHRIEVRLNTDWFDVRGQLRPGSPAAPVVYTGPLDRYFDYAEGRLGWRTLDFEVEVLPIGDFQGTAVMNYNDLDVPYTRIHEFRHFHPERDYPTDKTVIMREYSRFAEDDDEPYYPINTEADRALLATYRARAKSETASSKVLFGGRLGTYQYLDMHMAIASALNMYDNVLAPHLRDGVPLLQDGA
# The entries are a selection whose mix differs from that of the whole data set. Calls of active or inactive are those of the source. No stated cut-off is given here; in the data, active means inhibition above about 10% (passing the limit was not always enough); inconclusive means no clear call, values can overlap the other calls.
# Target: UDP-galactopyranose mutase (Mycobacterium tuberculosis (strain ATCC 25618 / H37Rv)) (UniProt P9WIQ1)
# Experiment: blockers of Mtb UDP-galactopyranose mutase – biochemical, fluorescence polarization, single point, primary screen (AID 504406)
# Details: purified UGM, fluorescence polarization probe displacement; at 10 µM; stronger effect = higher value
row,SMILES,inhibition
1,COc1ccccc1OP(C)(=O)Nc1ccc(Br)cc1 (centres undefined),inactive: -1.11%
2,CCc1ccc(OP(C)(=O)O)cc1,inactive: -1.3%
3,COc1ccccc1OP(C)(=O)Nc1ccc(C)cc1C (centres undefined),inactive: 0.0885%
4,CP(=O)(Nc1ccccn1)Oc1ccccc1 (centres undefined),inactive: 0.925%
5,Cc1c(NP(C)(=O)Oc2ccc(C(C)C)cc2)c(=O)n(-c2ccccc2)n1C (centres undefined),inactive: -0.178%
6,O=[N+]([O-])c1cc([N+](=O)[O-])c(Nc2ccccn2)c([N+](=O)[O-])c1,inactive: -0.114%
7,CCc1ccc(OP(C)(=O)Nc2cccnc2)cc1 (centres undefined),inactive: -2.91%
8,CP(=O)(Oc1ccccc1)N1CCOC1=O (centres undefined),inactive: -4.73%
9,O=C(OCCCN1CCCC1)C(O)(c1ccccc1)C1CCCCC1 (centres undefined),inactive: -4.38%
10,COc1ccccc1OP(C)(=O)Nc1c(C)n(C)n(-c2ccccc2)c1=O (centres undefined),inactive: -0.249%
11,CCN(CC)CC(O)COC(=O)C(O)(c1ccccc1)C1CCCCC1 (centres undefined),inactive: 3.83%
12,CN(C)C(=O)c1c([N+](=O)[O-])cc([N+](=O)[O-])cc1[N+](=O)[O-],inactive: 0.223%
13,CP(=O)(Nc1ccc(Cl)cc1)Oc1ccc(F)cc1 (centres undefined),inactive: 0.793%
14,COc1ccccc1OP(C)(=O)Nc1ccccc1Br (centres undefined),inactive: 0.664%
15,CC(C)(C)c1ccc(OP(C)(=O)O)cc1,inactive: 2.06%
16,CP(=O)(OC12CC3CC(CC(C3)C1)C2)OC12CC3CC(CC(C3)C1)C2,inactive: 4.88%
17,CCOC(=O)c1ccc(NP(C)(=O)Oc2ccc(Cl)cc2)cc1 (centres undefined),inactive: 1.7%
18,Nc1ccc2c(ccc3cccnc32)n1.O=[N+]([O-])c1cc([N+](=O)[O-])c(O)c([N+](=O)[O-])c1,inactive: 4.37%
19,COc1ccccc1OP(C)(=O)Nc1ccccc1 (centres undefined),inactive: 1.12%
20,CP(=O)(Nc1ccccc1Br)Oc1ccccc1 (centres undefined),inactive: 0.279%

row,SMILES,inhibition
1,CP(=S)(Nn1cnnc1)Oc1ccccc1 (centres undefined),inactive: -0.216%
2,Cc1cc(C)cc(OP(C)(=O)Nc2ccc(SC(F)(F)F)cc2)c1 (centres undefined),inactive: 1.81%
3,CP(=O)(NC(=O)Nc1ccccc1)Oc1ccccc1 (centres undefined),inactive: -1.01%
4,CCc1ccc(OP(C)(=O)N2CCN(c3ccc([N+](=O)[O-])cc3)CC2)cc1 (centres undefined),inactive: 0.379%
5,CP(=O)(Oc1ccccc1)OC(c1ccccc1)C(F)(F)F (centres undefined),inactive: -2.1%
6,CP(=O)(Nc1ccc(SC(F)(F)F)cc1)Oc1ccc(Cl)cc1 (centres undefined),inactive: -3.11%
7,Cc1cccc(C)c1OP(C)(=O)Nc1ccc(SC(F)(F)F)cc1 (centres undefined),inactive: 0.494%
8,CP(=O)(Nc1ccccn1)Oc1ccc(Cl)cc1 (centres undefined),inactive: 3.16%
9,CCOP(C)(=S)SCC(=O)NC(C)C(=O)O (centres undefined),inactive: -2.23%
10,O=[N+]([O-])c1cc([N+](=O)[O-])c(O)c([N+](=O)[O-])c1.c1ccc(Oc2ccncc2)cc1,inactive: -4.14%
11,CCOC(=O)c1ccc(NP(C)(=O)Oc2ccc(OC)cc2)cc1 (centres undefined),inactive: 1.17%
12,CCN(CC)CCCOC(=O)C(O)(c1ccccc1)c1ccccc1,inactive: -1.17%
13,CC(C)(C)c1ccc(OP(C)(=O)Nc2ccc(SC(F)(F)F)cc2)cc1 (centres undefined),inactive: 1.17%
14,O=[N+]([O-])c1ccc2c(c1)C=Nc1ccccc1O2,inactive: 1.24%
15,O=[N+]([O-])c1cc([N+](=O)[O-])c(Nc2cccnc2)c([N+](=O)[O-])c1,inactive: 0.109%
16,COc1ccc(OP(C)(=O)Nc2cccc(F)c2)cc1 (centres undefined),inactive: 0.896%
17,COc1ccccc1OP(C)(=O)Nc1cc(Cl)ccc1C (centres undefined),inactive: -1.52%
18,Cc1cc(C)cc(OP(C)(N)=O)c1 (centres undefined),inactive: 3.53%
19,CCOC(=O)c1ccc(NP(C)(=O)Oc2ccccc2)cc1 (centres undefined),inactive: 1.41%
20,Cc1ccc(NP(C)(=O)Oc2ccccc2)c(C)c1 (centres undefined),inactive: 5.67%

row,SMILES,inhibition
1,COc1ccccc1OP(C)(=O)Nc1ccc(C)cc1 (centres undefined),inactive: 0.123%
2,O=C(O)c1cccc(Nc2c([N+](=O)[O-])cc([N+](=O)[O-])cc2[N+](=O)[O-])c1,inactive: 2.25%
3,CC1=NCCc2c1[nH]c1ccccc21.O=[N+]([O-])c1cc([N+](=O)[O-])c(O)c([N+](=O)[O-])c1,inactive: 7.68%
4,Cc1cc(C)cc(OP(C)(=O)Nc2ccc(C)cc2C)c1 (centres undefined),inactive: 0.515%
5,CCOC(=O)c1ccc(NP(C)(=O)Oc2cc(C)cc(C)c2)cc1 (centres undefined),inactive: 6.08%
6,COc1ccccc1OP(C)(=O)Nc1cccc(Br)c1 (centres undefined),inactive: 0.0855%
7,Cc1cc(C)cc(OP(C)(=O)Nc2ccccn2)c1 (centres undefined),inactive: -1.9%
8,CP(=O)(Nc1cccc(Br)c1)Oc1ccccc1 (centres undefined),inactive: 6.12%
9,Cc1ccc(C)c(NP(C)(=O)Oc2ccccc2)c1 (centres undefined),inactive: -1.87%
10,O=[N+]([O-])c1cc([N+](=O)[O-])c(-n2nnc3ccccc32)c([N+](=O)[O-])c1,inactive: 1.19%
11,Cc1nc2ccc3ccccc3c2s1.O=[N+]([O-])c1cc([N+](=O)[O-])c(O)c([N+](=O)[O-])c1,inactive: 0.616%
12,O=[N+]([O-])c1cc([N+](=O)[O-])c(-c2cnn(-c3ccccc3)c2)c([N+](=O)[O-])c1,inactive: -2.48%
13,CCOC(=O)C(CC)C1=NC(C)(C)Cc2ccccc21.O=[N+]([O-])c1cc([N+](=O)[O-])c(O)c([N+](=O)[O-])c1 (centres undefined),inactive: 1.21%
14,CC1=C2N=C(C=C3N=C(C(C)=C4[N-][C@@](C)([C@@H]5N=C1[C@](C)(CCC(=O)NC[C@@H](C)OP(=O)([O-])O[C@H]1[C@@H](O)[C@@H](n6cnc7cc(C)c(C)cc76)O[C@@H]1CO)[C@H]5CC(N)=O)[C@@](C)(CC(N)=O)[C@@H]4CCC(N)=O)[C@@](C)(CC(N)=O)[C@@H]3CCC(N)=O)C(C)(C)[C@@H]2CCC(N)=O.[C-]#N.[Co+3],inactive: 1.89%
15,O=[N+]([O-])c1cc([N+](=O)[O-])c(Nc2nnnn2CCO)c([N+](=O)[O-])c1,inactive: -0.193%
16,CCCOc1ccc(NP(C)(=O)Oc2ccc(Cl)cc2)cc1 (centres undefined),inactive: 1.68%
17,CP(=O)(Nc1ccc(SC(F)(F)F)cc1)Oc1ccccc1 (centres undefined),inactive: 0.249%
18,CN1CCCCC1COC(=O)C1(O)c2ccccc2CCc2ccccc21 (centres undefined),inactive: -3.95%
19,COc1ccccc1OP(C)(=O)Nc1c(C)cccc1C (centres undefined),inactive: -1.39%
